The chains behind the UniProt entries cited, without tags or fusion partners. Where a name states a change or a piece, a line headed by the entry shows the natural chain unless it says otherwise.
UniProt P28593: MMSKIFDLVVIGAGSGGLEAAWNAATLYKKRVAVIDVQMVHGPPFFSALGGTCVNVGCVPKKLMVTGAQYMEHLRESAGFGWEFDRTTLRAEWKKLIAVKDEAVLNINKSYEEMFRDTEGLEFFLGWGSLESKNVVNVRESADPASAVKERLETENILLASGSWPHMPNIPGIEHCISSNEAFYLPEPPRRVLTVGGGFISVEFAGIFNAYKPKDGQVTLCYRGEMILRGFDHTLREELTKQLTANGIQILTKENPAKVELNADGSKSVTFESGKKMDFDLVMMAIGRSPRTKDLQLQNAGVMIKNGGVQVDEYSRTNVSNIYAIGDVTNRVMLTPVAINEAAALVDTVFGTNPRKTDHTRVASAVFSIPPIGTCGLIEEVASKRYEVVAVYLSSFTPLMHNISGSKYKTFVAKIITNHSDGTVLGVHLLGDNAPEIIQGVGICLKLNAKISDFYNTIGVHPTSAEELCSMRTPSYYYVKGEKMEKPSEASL

In ChEMBL document CHEMBL4052757, “Bistacrines as potential antitrypanosomal agents” (Bioorg Med Chem, 2017):

Legend:
[1] = biological target: Trypanothione reductase (Leishmania infantum) (UniProt A4HSF7); assay: Inhibition of Leishmania infantum trypanothione reductase
Leishmania infantum = assay: Antileishmanial activity against Leishmania infantum; format: functional
[2] = biological target: Trypanothione reductase (Trypanosoma cruzi) (UniProt P28593); assay: Inhibition of Trypanosoma cruzi trypanothione reductase at 3 uM using 100 uM trypanothione disulfide as substrate by spectrophotometric method relative to control
[3] = biological target: Trypanothione reductase (Trypanosoma cruzi) (UniProt P28593); assay: Inhibition of Trypanosoma cruzi trypanothione reductase at 1 uM using 40 uM trypanothione disulfide as substrate by spectrophotometric method relative to control
[4] = biological target: Trypanothione reductase (Trypanosoma cruzi) (UniProt P28593); assay: Inhibition of Trypanosoma cruzi trypanothione reductase at 1 uM using 100 uM trypanothione disulfide as substrate by spectrophotometric method relative to control
[5] = biological target: Rhodesain (Trypanosoma brucei rhodesiense) (UniProt Q95PM0); assay: Inhibition of Trypanosoma brucei rhodesiense rhodesain using Cbz-Phe-Arg-AMC as substrate by spectrofluorometric analysis
[6] = biological target: Trypanothione reductase (Trypanosoma cruzi) (UniProt P28593); assay: Inhibition of Trypanosoma cruzi trypanothione reductase at 3 uM using 40 uM trypanothione disulfide as substrate by spectrophotometric method relative to control
[7] = biological target: Rhodesain (Trypanosoma brucei rhodesiense) (UniProt Q95PM0); assay: Inhibition of Trypanosoma brucei rhodesiense rhodesain at 20 uM using Cbz-Phe-Arg-AMC as substrate measured for 5 mins by spectrofluorometric analysis relative to control
In short: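 Rhodesain in 50 mM sodium acetate pH 5.5 with 5 mM DTT, 5 mM EDTA, 200 mM NaCl; inhibitor 20 µM, substrate Cbz-Phe-Arg-AMC; AMC fluorescence (ex 380/em 460 nm) followed 5 min; activity from slopes of fluorescence vs time versus DMSO control; run in duplicate.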

With `c1ccc2c(NCCCCNc3c4c(nc5ccccc35)CCCC4)c3c(nc2c1)CCCC3` the inhibition [1] was “Active” and the Activity (Leishmania infantum) was “Active”.
With `c1ccc2c(NCCCNc3c4c(nc5ccccc35)CCCC4)c3c(nc2c1)CCCC3` the inhibition [1] was “Active” and the Activity (Leishmania infantum) was “Active”.
In the case of `c1ccc2c(NCCNc3c4c(nc5ccccc35)CCCC4)c3c(nc2c1)CCCC3`, the inhibition [1] is reported as “Active” and the Activity (Leishmania infantum) is reported as “Active”.
`c1ccc2c(NCCCCCCCCCNc3c4c(nc5ccccc35)CCCC4)c3c(nc2c1)CCCC3` was tested, and the inhibition [1] was “Active”, the inhibition [2] was 60.2% and the inhibition [3] was 49.6 to 52.9%. For the same molecule, the inhibition [4] was 36.4 to 47%, the inhibition [5] was “Dose-dependent effect” and the Activity (Leishmania infantum) was “Active”. The inhibition [6] was 70.6 to 71.4% and the inhibition [7] was 82%.

Active and inactive are the calls of the source. The rule behind the calls is not given here.
